# Measured values taken from article PMC9687439 (Biology, 2022).
# What was measured:
# X. fastidiosa = settings: cited from earlier work
# Xylella fastidiosa cells [1] = format: cell-based
# [2] = system: Xanthomonas albilineans (Xa), strain CFBP2523; format: cell-based; design: key: +++: Clear plaque formation; ++: turbid plaque formation; +: highly turbid plaque formation; -: no plaque formation
# Xylella fastidiosa cells [3] = format: cell-based; remark: listed apart in the source
# Xylella fastidiosa cells [4] = format: cell-based; remark: listed apart in the source
# [5] = system: Xylella fastidiosa subsp. pauca, strain De Donno; settings: 12 μM
# [6] = system: Xylella fastidiosa subsp. pauca isolate De Donno in Nicotiana tabacum (var. Xanthi); settings: in vivo
compound,measurement,setting,value
"CC[C@H](C)[C@H](NC(=O)CNC(=O)[C@H](C)NC(=O)[C@@H]1CCCN1C(=O)CNC(=O)[C@H](C)NC(=O)[C@H](CC(C)C)NC(=O)[C@H](Cc1ccc(O)cc1)NC(=O)[C@H](CCCCN)NC(=O)[C@H](CC(C)C)NC(=O)[C@@H](NC(=O)[C@H](CCCCN)NC(=O)[C@H](CCCCN)NC(=O)[C@H](Cc1ccccc1)NC(=O)[C@H](CC(C)C)NC(=O)[C@H](CCCCN)NC(=O)[C@@H](N)CCCCN)[C@@H](C)CC)C(=O)NCC(=O)N[C@@H](CCCCN)C(=O)N[C@@H](Cc1ccccc1)C(=O)N[C@@H](CC(C)C)C(=O)N[C@@H](Cc1c[nH]cn1)C(=O)N[C@@H](CO)C(=O)N[C@@H](C)C(=O)N[C@@H](CCCCN)C(=O)N[C@@H](CCCCN)C(=O)N[C@@H](CC(=O)O)C(=O)N[C@@H](CCC(=O)O)C(=O)N[C@@H](CC(C)C)C(=O)O [KL29, BP178, reference compound]",MIC (μM) X. fastidiosa,X. fastidiosa,12.5 µM
same,lytic activity by fluorescence microscopy (live green / dead red),Xylella fastidiosa cells [1],highest lytic activities
same,growth inhibition of Xanthomonas albilineans (plaque formation),[2],+++
same,reduction in Xf cell viability (v-qPCR),Xylella fastidiosa cells [3],twofold reduction in cell viability
same,morphological changes of Xf cells under TEM,Xylella fastidiosa cells [4],pore and protrusion formation and condensed cytoplasmic outflow from the outer membrane
same,inhibition / clearing zone on Xf (printed 'mean growth zones'),[5],11.8 mm
same,Xf disease symptoms in Xf-infected tobacco plants,[6],light leaf scorch symptoms
